{"source": "PubChem BioAssay AID504761 – Drosophila RNAi Screening Center | 2011", "aim": "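Genome-wide fly cell screen for genes dengue virus requires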 (primary screen)", "cells": "D.Mel-2 cells from Drosophila", "knock-down reagent": "long dsRNA against Drosophila genes", "treatment": "infection with dengue virus type 2; dose and infection time not stated", "measured": "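Per well on two replicate plates, imaging gave the percent of cells positive for viral envelope protein, ranked by infection, and a nuclear count of cells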", "direction": "infection score: higher = more virus-infected cells", "active means": "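Low infection ranks in the two replicates (chance level up to 0.065) followed by a retest with a 1.5-fold or larger significant decrease, p below 0.05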", "meaning of the calls": "active = confirmed: knock-down lowers infection; inactive = not picked or not confirmed", "note": "In all, the deposit lists about 22,000 reagents; shown is a random part of those that have a named target and a result. Over the whole deposit, 116 (0.52%) are marked active. 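Calls depend on retest data that are not deposited; infection was ranked per plate without normalising between plates; the unit of the infection score is not given.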 A number with no mark means an inactive call. Not all columns of the deposit are shown. The record does not give: the amount of reagent, the time to read-out."}
{"predicted target":"CG14285","DRSC id":"DRSC14766","infection score, replicate 1":1.58}
{"predicted target":"Pde8 (Phosphodiesterase 8)","DRSC id":"DRSC04503","infection score, replicate 1":10.6}
{"predicted target":"Pde8 (Phosphodiesterase 8)","DRSC id":"DRSC29684","infection score, replicate 1":16.3}
{"predicted target":"NimB1 (Nimrod B1)","DRSC id":"DRSC01880","infection score, replicate 1":18.9}
{"predicted target":"CG9394","DRSC id":"DRSC04550","infection score, replicate 1":14.4}
{"predicted target":"Drgx (Dorsal root ganglia homeobox)","DRSC id":"DRSC00278","infection score, replicate 1":13.5}
{"predicted target":"Drgx (Dorsal root ganglia homeobox)","DRSC id":"DRSC00537","infection score, replicate 1":6.1}
{"predicted target":"Drgx (Dorsal root ganglia homeobox)","DRSC id":"DRSC28844","infection score, replicate 1":18.1}
{"predicted target":"CG11370","DRSC id":"DRSC11653","infection score, replicate 1":3.24}
{"predicted target":"CG11370","DRSC id":"DRSC28361","infection score, replicate 1":8.66}
{"predicted target":"CG17600","DRSC id":"DRSC20640","infection score, replicate 1":"0.42 (active)"}
{"predicted target":"CG17600","DRSC id":"DRSC22753","infection score, replicate 1":1.76}
{"predicted target":"CG17600","DRSC id":"DRSC27203","infection score, replicate 1":14.8}
{"predicted target":"CG11262","DRSC id":"DRSC09831","infection score, replicate 1":0.4}
{"predicted target":"Mst57Dc (Male-specific transcript 57Dc)","DRSC id":"DRSC16745","infection score, replicate 1":4.32}
{"predicted target":"Elovl7 (ELOVL fatty acid elongase 7)","DRSC id":"DRSC15452","infection score, replicate 1":5.82}
{"predicted target":"Elovl7 (ELOVL fatty acid elongase 7)","DRSC id":"DRSC21570","infection score, replicate 1":0.34}
{"predicted target":"Elovl7 (ELOVL fatty acid elongase 7)","DRSC id":"DRSC25259","infection score, replicate 1":1.83}
{"predicted target":"Polr1A (RNA polymerase I subunit A)","DRSC id":"DRSC07535","infection score, replicate 1":43.3}
{"predicted target":"CtsK2 (Cathepsin K2)","DRSC id":"DRSC06897","infection score, replicate 1":3.63}
{"predicted target":"CtsK2 (Cathepsin K2)","DRSC id":"DRSC25927","infection score, replicate 1":5.34}
{"predicted target":"ago (archipelago)","DRSC id":"DRSC08463","infection score, replicate 1":7.54}
{"predicted target":"CG32856","DRSC id":"DRSC13124","infection score, replicate 1":0.63}
{"predicted target":"CG32856","DRSC id":"DRSC29746","infection score, replicate 1":10.3}
{"predicted target":"Rpn13 (Regulatory particle non-ATPase 13)","DRSC id":"DRSC06379","infection score, replicate 1":11.4}
{"predicted target":"Mfe2 (peroxisomal Multifunctional enzyme type 2)","DRSC id":"DRSC19869","infection score, replicate 1":2.43}
{"predicted target":"key (kenny)","DRSC id":"DRSC04285","infection score, replicate 1":27.7}

Records above whose gene name starts with P or p (3):
{"predicted target":"Pde8 (Phosphodiesterase 8)","DRSC id":"DRSC04503","infection score, replicate 1":10.6}
{"predicted target":"Pde8 (Phosphodiesterase 8)","DRSC id":"DRSC29684","infection score, replicate 1":16.3}
{"predicted target":"Polr1A (RNA polymerase I subunit A)","DRSC id":"DRSC07535","infection score, replicate 1":43.3}
